A mixed list of measured activities; the numbers were collected in NIAID ChemDB.

All rows: cytotoxicity tests; cells: CEM; endpoint: CC50

Blank or dashed fields: not listed here. Two numbers with a dash give a range or band. Neighbouring rows are from separate reports. CCn: concentration that lowers growth or viability of the cells by n%.

structure	read by	result
O=c1[nH]c(=O)n([C@H]2C=C[C@@H](OCP(=O)(O)O)O2)cc1Cl		>100 µg/mL
Nc1nc(N)c2ncn([C@@H]3O[C@H](CO)C[C@@H]3F)c2n1		>93 µM
CC(=O)N[C@H]1OC(CO[Si](C)(C)C(C)(C)C)C2(OS(=O)(=O)C=C2N)C1O[Si](C)(C)C(C)(C)C		8 µM
CN(CC(=O)Nc1ccc(F)cc1)C(=O)COC(=O)c1ccccc1SCC(=O)N1CCCC1	MTT	>68.3 µM
CC(C)(C)[Si](C)(C)OC[C@H]1O[C@@H](n2ccc(=O)[nH]c2=O)[C@H](O[Si](C)(C)C(C)(C)C)C1(O)C(Cl)C(N)=O	propidium iodide / flow cytometry	8 µM
CC(C)(C)[Si](C)(C)OCC1OC(N=[N+]=[N-])C(O[Si](C)(C)C(C)(C)C)C12OS(=O)(=O)C=C2N		200 µM
OC[C@H]1O[C@@H](n2c(Br)nc3cc(Cl)c(Cl)cc32)[C@H](O)[C@@H]1O		35–72 µM
O=C(c1cccc(Cl)c1)c1ccc2[nH]c(=O)sc2c1		6.9 µg/mL
CNC(=O)c1ccccc1SSc1ccccc1C(=O)NC		11 µM
O=C(c1ccccc1)c1ccc2c(c1)sc(=O)n2Cc1ccccc1		2.1 µg/mL
CCCC[C@H](NP(=O)(OC[C@@H]1C=C[C@H](n2cc(C)c(=O)[nH]c2=O)O1)Oc1ccccc1)C(=O)OC		168 µM
CCC(=O)c1ccc2c(c1)sc(=O)n2CCN1CCOCC1		29 µg/mL
CC(C)c1c(Sc2ccccc2)n(CC2CC=CC2)c(=O)[nH]c1=O		36.2 µM
Cc1cccc(NC(=O)CN2CCN(C(=O)C3CCCN(C(=O)c4ccc(F)cc4)C3)CC2)c1C	MTT	>65 µM
CN(C)c1cccc(C(=O)c2ccc3c(c2)sc(=O)n3C)c1		>40 µg/mL
CC(C)Oc1ccc(NC(=O)c2ccccc2SSc2ccccc2C(=O)Nc2ccc(OC(C)C)cc2)cc1		67 µM
NS(=O)(=O)c1ccc(C(=O)Nc2ccccc2SSc2ccccc2NC(=O)c2ccc(S(N)(=O)=O)cc2)cc1		27 µM
CC(C)(C)NC(=O)c1ccccc1SSc1ccccc1C(=O)NC(C)(C)C		>100 µM
O=C(Cc1cn([C@H]2C=C[C@@H](CO)O2)c(=O)[nH]c1=O)NCCCCCCCCCCCCNC(=O)c1c2ccccc2nc2ccccc12	MTT	>10 µM
Cc1cc(C)cc(Oc2c(C(C)C)c(=O)[nH]c(=O)n2CC2CCCCC2)c1		55.6 µM
Nc1ncnc2c1ncn2C[C@H]1C[C@H]1CO		>100 µM
Nc1ncnc2c1ncn2[C@@H]1O[C@H](CO)[C@@H](F)[C@@H]1F		>100 µM
O=C(c1ccccc1SSc1ccccc1C(=O)N1CCC(O)C1)N1CCC(O)C1		>200 µM
CN(C)c1cccc(C(=O)c2ccc3[nH]c(=O)oc3c2)c1		28 µg/mL
NCCCc1cn([C@H]2C=C[C@@H](CO)O2)c(=O)[nH]c1=O	MTT	630 µM
CN(C)c1ccc(C2ON=C(c3ccccc3)N2C23CC4CC(CC(C4)C2)C3)cc1		22 µM
Cc1cn([C@@H]2O[C@H](CO[Si](C)(C)C(C)(C)C)C3(O[C@H]3C(=O)NO)[C@H]2O[Si](C)(C)C(C)(C)C)c(=O)[nH]c1=O	propidium iodide / flow cytometry	3.1 µM
Nc1ncnc2c1ncn2C[C@H]1C[C@H]1[C@H](O)CO		>100 µM
Cc1cc(C)c(Nc2ccnc(Nc3ccc(C#N)cc3)n2)c(C)c1		1.367 µM
Cc1cc(C)cc(Oc2c(C(C)C)c(=O)[nH]c(=O)n2CC2CC2)c1		27.4 µM
Cc1cc(F)cc(CNC(=O)Cc2c(C)nc(C)[nH]c2=O)c1	MTT	>110 µM
CCCCCCCCCCCCCC(=O)OCC(NC(C)=O)C(OCC)OCC	trypan blue	>100 µM
Cc1cc(C)cc(C(=O)c2c(C(C)C)c(=O)[nH]c(=O)n2CCC2C=CCC2)c1		22.9 µM
CC(C)Nc1nc2cc(Cl)c(Cl)cc2n1[C@H]1O[C@@H](CO)[C@H](O)[C@@H]1O		35–72 µM
Cc1cccc(NC(=O)c2ccccc2SSc2ccccc2C(=O)Nc2cccc(C)c2)c1		44 µM
O=C(N/N=C/c1ccc(O)cc1)Nc1cccc2nsnc12	ATP	26.6 µM
O=c1[nH]c(=O)n([C@@H]2C=C[C@H](CO)O2)cc1CCO	MTT	>100 µM
CC(=O)OCCOCN1c2nc(Cc3ccccc3)[nH]c2C(N)=NS1(=O)=O		111 µg/mL
CCc1c(Oc2cc(C)cc(C)c2)n(CCC2C=CCC2)c(=O)[nH]c1=O		>1120 µM
O=c1[nH]c(=O)n([C@H]2C=C[C@@H](OCP(=O)(O)O)O2)cc1I		>100 µg/mL
Cc1cn(C[C@H]2C[C@H]2CO)c(=O)[nH]c1=O		>100 µM
CC(C)c1c(C(=O)c2ccccc2)n(CC2CC=CC2)c(=O)[nH]c1=O		>1180 µM
Cc1cn([C@H]2C=C[C@@H](OCP(=O)(O)O)O2)c(=O)[nH]c1=O		>100 µg/mL
COC(=O)[C@H](C)NP(=O)(OC[C@@H]1C=C[C@H](n2cc(CC(=O)NCCCCCCCCCCNC(=O)C(F)(F)F)c(=O)[nH]c2=O)O1)Oc1ccccc1	MTT	>10 µM
Nc1nc(=O)n([C@@H]2O[C@H](CO)[C@@H](CO)[C@@H]2F)cc1F		≥100 µM
NS(=O)(=O)c1ccc(NC(=O)c2ccccc2CSc2ccccc2C(=O)Nc2ccc(S(N)(=O)=O)cc2)cc1		>100 µM
CC(C)(C)[Si](C)(C)OCC1O[C@@H](NC(N)=O)C(O[Si](C)(C)C(C)(C)C)C12OS(=O)(=O)C=C2N		250 µM
O=C(Nc1ccc(F)cc1)c1ccccc1SSc1ccccc1C(=O)Nc1ccc(F)cc1		14 µM
CCc1c(C(=O)c2cc(C)cc(C)c2)n(CC2CC=CC2)c(=O)[nH]c1=O		>1130 µM
FC(F)(F)c1ccc(C2ON=C(c3ccccc3)N2C23CC4CC(CC(C4)C2)C3)cc1		>200 µM
Nc1nc2c(ncn2C[C@H]2C[C@H]2CO)c(=O)[nH]1		>100 µM
COC(=O)CNP(=O)(OC[C@@H]1C=C[C@H](n2cc(C)c(=O)[nH]c2=O)O1)Oc1ccccc1		≥250 µM
Nc1nc(Cl)c2ncn([C@@H]3O[C@H](CO)C[C@@H]3F)c2n1		>50 µM
Cc1cn([C@@H]2O[C@H](CO[Si](C)(C)C(C)(C)C)C3(O[C@H]3C(=O)NN)[C@H]2O[Si](C)(C)C(C)(C)C)c(=O)[nH]c1=O	propidium iodide / flow cytometry	5 µM
N#Cc1ccc(C2ON=C(c3ccccc3)N2C23CC4CC(CC(C4)C2)C3)cc1		140 µM
CCOC(=O)N1CCC(NC(=O)CN(C)C(C)c2ccc(F)cc2)CC1	MTT	>91.3 µM
CCC[C@H](NP(=O)(OC[C@@H]1C=C[C@H](n2cc(C)c(=O)[nH]c2=O)O1)Oc1ccccc1)C(=O)OC		≥250 µM
N#Cc1ccc(NC(=O)c2ccccc2SSc2ccccc2C(=O)Nc2ccc(C#N)cc2)cc1		30 µM
O=S(=O)(c1cccc2cnccc12)N1CCNCC1		10.2 µg/mL
Nc1ncnc2c1ccn2[C@@H]1C[C@H](O)[C@@H](O)[C@H]1O		>500 µg/mL
COC(=O)[C@H](C)NP(=O)(OC[C@H]1C=C[C@@H](n2cc(CC(=O)NCCCCCCCCCCCCNC(=O)C(F)(F)F)c(=O)[nH]c2=O)O1)Oc1ccccc1	MTT	>10 µM
CCCCCCCCCCCCCC(=O)OCC(N)C(=O)O	trypan blue	100 µM
NC1=NS(=O)(=O)N(Cc2ccccc2)c2nc(-c3ccc(Cl)cc3)[nH]c21		9.9 µg/mL
CCc1c(C(=O)c2cc(C)cc(C)c2)n(Cc2ccccc2)c(=O)[nH]c1=O		1100 µM
COC(=O)/C=C1/[C@@H](O[Si](C)(C)C(C)(C)C)[C@H](n2ccc(=O)[nH]c2=O)O[C@@H]1CO[Si](C)(C)C(C)(C)C	propidium iodide / flow cytometry	25 µM
O=S(=O)(O)c1cc(N=Nc2cc(S(=O)(=O)O)c3ccccc3c2O)ccc1/C=C/c1ccc(N=Nc2cc(S(=O)(=O)O)c3ccccc3c2O)cc1S(=O)(=O)O		>11.76 µM

Again, the opening 5 rows:

structure | read by | result
O=c1[nH]c(=O)n([C@H]2C=C[C@@H](OCP(=O)(O)O)O2)cc1Cl |  | >100 µg/mL
Nc1nc(N)c2ncn([C@@H]3O[C@H](CO)C[C@@H]3F)c2n1 |  | >93 µM
CC(=O)N[C@H]1OC(CO[Si](C)(C)C(C)(C)C)C2(OS(=O)(=O)C=C2N)C1O[Si](C)(C)C(C)(C)C |  | 8 µM
CN(CC(=O)Nc1ccc(F)cc1)C(=O)COC(=O)c1ccccc1SCC(=O)N1CCCC1 | MTT | >68.3 µM
CC(C)(C)[Si](C)(C)OC[C@H]1O[C@@H](n2ccc(=O)[nH]c2=O)[C@H](O[Si](C)(C)C(C)(C)C)C1(O)C(Cl)C(N)=O | propidium iodide / flow cytometry | 8 µM